Measured values from several laboratories, pooled; numbers as filed in NIAID ChemDB.

All rows: tests in culture; organism: HIV-1; measure: fold resistance

Blank or dashed fields: not listed here.

smiles	read by	strain	cell line	changes	value
Cc1ccnc(SC(F)(F)c2nc3ccccc3o2)n1		HEPT/236 (RT P236L)		RT-P236L	1.64
O=C1Nc2ccc(Cl)cc2[C@@](C#CC2CC2)(C(F)(F)F)O1			MT-4	K103N	27
C[C@@H]1CCO[C@H]2Cn3cc(C(=O)NCc4ccc(F)cc4F)c(=O)c(O)c3C(=O)N12	luciferase / luminescence		TZM-bl	I60M	1
COc1ccnc2[nH]cc(C(=O)C(=O)N3CCN(C(=O)c4ccccc4)C[C@H]3C)c12	RT activity	LAI(GP120-V68A) Recombinant	MT-2	GP120-V68A	<4
Cc1ccc(C)c(C(C)S(=O)(=O)c2c(C)ccc[n+]2[O-])c1	cytopathic effect		CEM	RT-Y181C	≥200
CC(C)=CCN1CC(C)Cn2c(=S)[nH]c3cccc1c32	cytopathic effect / XTT	N119(RT-Y181C)	CEM(SS) + CEM-SS	RT-Y181C	>54.4
Nc1ncnc2c1ncn2[C@@H]1C=C[C@H](OCP(=O)(O)O)O1	cytopathic effect		MT-2	RT-M184V	14
Cc1cc(C#N)cc(C(=O)c2cc(Cl)ccc2OCC(=O)Nc2ccc(S(N)(=O)=O)nc2C)c1	β-galactosidase	HXB2	HeLa + HELA CD4+	RT-V106I	~1
CCc1c(C)[nH]c(=O)c(SC)c1Oc1cc(C)cc(C)c1	cytopathic effect / MTT		MT-4	RT-Y188L	63
Cc1cc(C#N)cc(C)c1Oc1nc(Nc2ccc(C#N)cc2)ncc1SCC(=O)NCC1CCCO1	MTT		MT-4	L100I	5.9
C[C@H]1CO[C@@H]2Cn3cc(C(=O)NCc4ccc(F)cc4F)c(=O)c(O)c3C(=O)N12	GFP	NL4-3	CEM-GXR	T97A E138K G140S Q148H	268.6
Cc1occc1C(=S)Nc1ccc(Cl)c(/C=N/OC(C)(C)C)c1	cytopathic effect / XTT	CALO(RT-T139I)	CEM + CEM-SS	RT-T139I	1.5
Cc1cc(C#N)cc(C)c1Oc1nc(Nc2ccc(C#N)cc2)ncc1SCC(=O)NC1CC1	MTT		MT-4	L100I	5.1
CN(C)C1=C(C#N)/C(=C2/C(C#N)=C(N(C)C)N(c3ccc([N+](=O)[O-])cc3)c3c2n(C)c2ccccc32)c2c(c3ccccc3n2C)N1c1ccc([N+](=O)[O-])cc1	cytopathic effect / XTT	A17	CEM + CEM-SS	RT-K103N Y181C	3.62
Cc1ccc2c(C)ccc(-n3c(C)nnc3SCC(=O)Nc3ccc(S(N)(=O)=O)cc3Cl)c2n1	luciferase	NL4-3	HeLa + HeLa-JC53	RT-Y188L	25
Cc1cc(S(N)(=O)=O)ccc1NC(=O)COc1ccccc1C(=O)c1cc(Cl)cc(C#N)c1	β-galactosidase		HeLa MAGI + HeLa	RT-K103N	2
CCc1c(C)[nH]c(=O)c(Cl)c1Oc1cc(C)cc(C)c1	cytopathic effect / MTT		MT-4	RT-K103N	3
CC(C)c1c(Sc2ccccc2)n(COCc2ccccc2)c(=S)[nH]c1=O	syncytia	IIIB	CEM	RT-Y188H	≥2500
C=CCO/N=C/c1cc(NC(=S)c2ccoc2C)ccc1Cl	cytopathic effect / XTT	CALO(RT-T139I)	CEM + CEM-SS	RT-T139I	1.11
CC(C)=CCOc1cc(NC(=S)c2ccsc2C)ccc1Cl	cytopathic effect / XTT	NL4-3 (RT A98G)	CEM + CEM-SS	RT-A98G	1.5
C=CCNC(=O)CSc1cnc(Nc2ccc(C#N)cc2)nc1Oc1c(C)cc(C#N)cc1C	MTT		MT-4	L100I	6.9
Cc1ccc(C2CC2)c(-c2ccc3c(c2)CCCO3)c1[C@H](OC(C)(C)C)C(=O)O	luminescence	NL4-3	MT-4	NRTI/NNRTI resistant NLAY351717	2
Cc1nnc(SCC(=O)Nc2ccc(S(N)(=O)=O)cc2Cl)n1-c1cccc2ccccc12	luciferase	NL4-3	HeLa + HeLa-JC53	RT-Y188L	380
CCc1c(C)[nH]c(=O)c(Sc2ccccc2)c1Oc1cc(C)cc(C)c1	cytopathic effect / MTT		MT-4	RT-Y188L	79
Cc1ccc(C(C)S(=O)(=O)c2c(C)ccc[n+]2[O-])c(C)c1	cytopathic effect		CEM	RT-Y181C	14.7
C[C@@H]1CCO[C@H]2Cn3cc(C(=O)NCc4ccc(F)cc4F)c(=O)c(O)c3C(=O)N12	RT activity	NL4-3	CBMC	Y143R	1.2
Cc1c(OCC2CCC2)c2cc(F)ccc2[nH]c1=O	β-galactosidase	NNRTI-resistant (RT V106A)	HeLa + HeLa-MAGI	RT-V106A	>3.28
FC(F)(Sc1ncccn1)c1nc2ccccc2o1		Diphenyl sulfone		RT-Y181C	>3.18
Cc1occc1C(=S)Nc1ccc(Cl)c(COC(C)(C)C)c1	cytopathic effect / XTT	CALO(RT-T139I)	CEM + CEM-SS	RT-T139I	2.86
Nc1ccn([C@@H]2C=C[C@H](CO)O2)c(=O)n1	RT activity		PBMC	RT-M184V	17
Nc1nc(NC2CC2)c2ncn([C@H]3CO[C@@H](CO)O3)c2n1	RT activity	IIIB BCH-13520-resistant (RT K65R)	MT-2	RT-K65R	3.6
CCc1c(Sc2ccccc2)n(COCc2ccccc2)c(=O)[nH]c1=O	syncytia	IIIB TIBO R82913-resistant (RT K103N)	CEM	RT-K103N	410
C#CCNC(=O)CSc1cnc(Nc2ccc(C#N)cc2)nc1Oc1c(C)cc(C#N)cc1C	MTT		MT-4	F227L V106A	51.5
CCOCn1c(Sc2ccccc2)c(CC)c(=O)[nH]c1=S	syncytia	IIIB TIBO R82913-resistant (RT K103N)	CEM	RT-K103N	100
Cc1cc(S(N)(=O)=O)ccc1NC(=O)COc1ccc(Cl)cc1C(=O)c1cc(Cl)cc(C#N)c1	β-galactosidase	HXB2	HeLa + HELA CD4+	RT-V108I Y181C	~1
Cc1occc1C(=S)Nc1ccc(Cl)c(C(=O)OCC2CC2)c1	cytopathic effect / XTT	NL4-3	CEM + CEM-SS	RT-A98G	2
Cc1ccc2c(-n3c(C)nnc3SCC(=O)Nc3ccccc3Br)ccc(C)c2c1	luciferase	NL4-3	HeLa + HeLa-JC53	RT-Y188L	300
C/C=C/CSc1cc(NC(=S)c2ccsc2C)ccc1Cl	p24	NL4-3	CEM + CEM-SS	RT-A98G	9
CCC(=O)c1ccc(F)c([C@@H]2C[C@@H]2NC(=O)Nc2ccc(C#N)cn2)c1O	β-galactosidase / luminescence	LAI	TZM-bl	NNRTI-resistant (RT K101P)	≥100
CC(C)C(OC(=O)c1cc(NC(=S)c2cccn2C)ccc1Cl)C(C)C	cytopathic effect / XTT	CALO(RT-T139I)	CEM + CEM-SS	RT-T139I	6.67
N#Cc1cc2[nH]c3ccccc3c2n(-c2ccc([N+](=O)[O-])cc2)c1=O	cytopathic effect / MTT	F	MT-4	RT-Y188L	4
CC(C)=CCN1Cc2cc(Cl)cc3[nH]c(=O)n(c23)C[C@@H]1C	cytopathic effect / XTT	IIIB	MT-4	RT-Y181C	496
Nc1nc2c(ncn2[C@H]2CO[C@@H](CO)O2)c(=O)[nH]1	cytopathic effect / XTT		MT-2	RT-K65R	2.5
COc1cc2c(cc1Cc1cccc(Cl)c1F)c(=O)c(C(=O)O)cn2[C@H](CO)C(C)C	luminescence	NL4-3	MT-4	A128T	1
Cc1nnc(SCC(=O)Nc2ccccc2Br)n1-c1cccc2cccnc12	luciferase	NL4-3	HeLa + HeLa-JC53	RT-Y188L	600
C=Cc1c(Oc2cc(C)cc(C)c2)c(CC)c(C)[nH]c1=O	cytopathic effect / MTT		MT-4	RT-L100I	2
CCc1c(Cc2cccc3ccccc23)nc(SCC(=O)c2ccc(C)cc2)[nH]c1=O	cytopathic effect	SO561945	MT-4	RT-K103N Y181C	≥17.6
Cc1nnc(C(=O)NC(C)(C)c2nc(C(=O)NCc3ccc(F)cc3)c(O)c(=O)n2C)o1	GFP	NL4-3	CEM-GXR	T97A E138K G140S Q148H	>1000
Cc1cc(C#N)cc(C)c1Oc1nc(Nc2ccc(C#N)cc2)ncc1SCC(=O)NC1CCN(C(=O)OC(C)(C)C)CC1	MTT		MT-4	Y188L	22
CN(C)c1ccc(-n2c(SCC(=O)Nc3ccc(S(N)(=O)=O)cc3Cl)nnc2C(F)(F)F)c2ccccc12	luciferase	NL4-3	HeLa + HeLa-JC53	RT-Y188L	3.5
Cc1occc1C(=S)Nc1ccc(Cl)c(C(=O)OC(C)C)c1	cytopathic effect / XTT	NL4-3	CEM + CEM-SS	RT-V108I	3
C[C@@H]1CCO[C@H]2Cn3cc(C(=O)NCc4ccc(F)cc4F)c(=O)c(O)c3C(=O)N12	luminescence	NL4-3	MT-4	PI-resistant ARP-4595 (M46I/L63P/V82T/I84V)	1
Cc1ccc(-n2c(C)nnc2SCC(=O)Nc2ccc(OC(F)(F)F)cc2Br)cc1	luciferase	NL4-3	HeLa + HeLa-JC53	RT-K103N Y181C	>173
CC(C)=CCOc1cc(NC(=S)c2ccoc2C)ccc1Cl	cytopathic effect / XTT	NL4-3 (RT M184V)	CEM + CEM-SS	RT-M184V	3.33
CCOc1ccc(F)c(CCNC(=S)Nc2ncc(C(F)(F)F)s2)c1Cl	cytopathic effect / XTT	IIIB	MT-4	RT-Y181C	>28.6
Cc1cc(C#N)cc(C)c1Oc1nc(Nc2ccc(C#N)cc2)ncc1SCC(=O)NCCN1CCN(C(=O)OC(C)(C)C)CC1	MTT		MT-4	Y188L	6.9
CC(C)[C@H](NC(=O)OCc1ccccn1)C(=O)N[C@@H](Cc1ccccc1)[C@@H](O)C[C@H](Cc1ccccc1)NC(=O)OCc1cccnc1	p24	NL4-3	MT-4	PR-L10R L63P	1
CCCc1cc(=O)oc2c3c(c4c(c12)OC(C)(C)CC4)O[C@H](C)[C@@H](C)C3=O	cytopathic effect / XTT			RT-L100I	>68
Cc1cc(S(N)(=O)=O)ccc1NC(=O)COc1ccc(Cl)cc1C(=O)c1cc(F)cc(F)c1	β-galactosidase	HXB2	HeLa + HELA CD4+	RT-K101E	~1
Cc1cc(C#N)cc(C)c1Oc1nc(Nc2ccc(C#N)cc2)ncc1SCC(=O)NCCN1CCOCC1	MTT		MT-4	RES056	3.7
CC(=O)CSc1nc(Cc2cccc3ccccc23)c(C)c(=O)[nH]1	cytopathic effect	SO561945	MT-4	RT-K103N Y181C	≥52
Cn1c2ccccc2c2c1cc(C#N)c(=O)n2-c1ccc([N+](=O)[O-])cc1	cytopathic effect / MTT	I	MT-4	RT-K101E K103N	3
Cc1ccc(C)c(C(Cl)S(=O)(=O)c2cc(C)cc[n+]2[O-])c1	cytopathic effect		CEM	RT-K103N	>8.3
CCc1c(C)[nH]c(=O)c(OC)c1Oc1cc(C)cc(C)c1	cytopathic effect / MTT		MT-4	RT-K103N Y181C	200
Cc1cc(-n2c(C)nnc2SCC(=O)Nc2ccccc2Br)c2ccccc2c1C	luciferase	NL4-3	HeLa + HeLa-JC53	RT-K103N Y181C	62
Cc1cc(C#N)cc(C)c1Oc1nc(Nc2ccc(C#N)cc2)ncc1SCC(=O)Nc1ccc(S(C)(=O)=O)cc1	MTT		MT-4	L100I	14.9
CCOCn1c(Cc2ccccc2)c(C(C)C)c(=O)[nH]c1=O	syncytia	IIIB	CEM	Nevirapine resistant (RT Y181C)	115
CCCCCCCCCCCCCCCC(=O)Nc1ccn([C@H]2CC[C@@H](COP(=O)(O)O[C@H]3C[C@H](n4cc(C)c(=O)[nH]c4=O)O[C@@H]3CO)O2)c(=O)n1	cytopathic effect / XTT	AZT-resistant (RT D67N K70R T215Y K219Q)	CEM + CEM-SS	RT-D67N K70R T215Y K219Q	2.8
Nc1nc(NC2CC2)c2ncn([C@H]3C=C[C@@H](CO)C3)c2n1	p24	XM-ABC-resistant	PBMC	RT-K65R L74V M184V Y115F	19
CCOCn1c(Sc2ccccc2)c(C(C)C)c(=O)[nH]c1=S	syncytia	IIIB	CEM	Nevirapine resistant (RT Y181C)	17.8
Cc1cc2cn[nH]c2cc1NC(=O)COc1ccc(Cl)cc1C(=O)c1cccc(C#N)c1	β-galactosidase	HXB2	HeLa + HELA CD4+	RT-V108I Y181C	~1
Cc1nnc(SCC(=O)Nc2ccccc2Br)n1-c1ccc(Cl)c2ccccc12	luciferase	NL4-3	HeLa + HeLa-JC53	RT-Y188L	250

Rows are shuffled and stem from different studies. Fold resistance: result on the changed form divided by that on wild type.